Molecular target: 5-HT-2 receptor (Rattus norvegicus, UniProt P14842)
Conditions: rat frontal cortex

Chains of the proteins cited; added tags and fusions are not shown.
UniProt P14842, whole entry: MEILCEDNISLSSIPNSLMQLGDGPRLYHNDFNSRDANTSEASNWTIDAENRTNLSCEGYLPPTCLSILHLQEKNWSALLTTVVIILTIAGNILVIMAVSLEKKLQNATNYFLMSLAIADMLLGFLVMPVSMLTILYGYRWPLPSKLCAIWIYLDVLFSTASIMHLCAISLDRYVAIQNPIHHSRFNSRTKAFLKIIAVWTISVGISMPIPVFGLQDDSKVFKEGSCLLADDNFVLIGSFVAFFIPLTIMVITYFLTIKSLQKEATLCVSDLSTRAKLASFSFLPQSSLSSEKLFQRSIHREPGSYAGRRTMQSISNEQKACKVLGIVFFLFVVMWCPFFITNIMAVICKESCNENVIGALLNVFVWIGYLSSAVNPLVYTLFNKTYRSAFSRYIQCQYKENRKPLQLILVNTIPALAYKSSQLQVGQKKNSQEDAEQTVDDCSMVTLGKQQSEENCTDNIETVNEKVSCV

## Cc1cc2c(s1)Nc1ccccc1N=C2N1CCN(C)CC1
  concentration displacing H-spiperone at the 5-HT-2 receptor: low nanomolar concentrations
